Assay results published in patent US20070219243A1, “Method for improving the pharmacokinetics of HIV integrase inhibitors” (priority 2005, published 2007).

Settings: in vivo

emtricitabine/tenofovir disoproxil fumarate [FTC/TDF]
Drug-drug interaction upon co-administration: no clinically relevant drug-drug interaction
